Target: A/Vietnam/1203/2004 H5N1 HA globular head (D55-E271), wild type (Influenza A virus A/Vietnam/1203/2004 …, strain)

B1: FLD21.140 (full-length human IgG1) (antibody, V domains shown)
VH: QVQLQESGPGLVKPSQTLSLTCTVSGGSISSGTYYWSWIRHHPGKGLEWIGYIYHSGSAYYNPSLESRVTMSVDTSKNQFSLKLSSVTAADTAIYYCARAENLLSPYLAEGFDPWGQGTLVTVSS
VL: QSVLTQPPSASGTPGQRVTISCSGSTSNIGSNAVNWYQQLPGTAPKLLIYSNNQRPSGVPDRFSGSKSGTSASLAISGLQSEDEADYYCAAWDDSLSGSWVFGGGTKLTVL
Kd: 0.0821 nM
